PubChem BioAssay AID624099, ICCB-Longwood – 2012
Here is an unselected part of about 21,000 deposited reagents. In the full data, 497 (2.4%) were called active. 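Higher z means weaker E2 silencing; only reporter increases were scored, and knock-downs that hurt cell survival may mask genuine repressor factors.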 The numbers tell different reagents against one gene apart.

Aim: 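Host factors E2 relies on to silence an HPV18 LCR reporter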 (primary screen)
Cells: human C33A cervical carcinoma cells (HPV-negative) stably expressing BPV1 E2 and an HPV18 LCR luciferase reporter
Knock-down reagent: siRNA pool against human genes, 40 nM
Time to read-out: 72 h
Read-out: 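Per-well luciferase luminescence, z-scored on each plate against the plate mean and SD with control wells left out, then averaged across three replicate plates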
Reading the numbers: mean z-score and z-score: higher = stronger reporter signal, weaker E2 silencing
Hit rule: 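Mean z ≥ 2 together with z ≥ 2 in two or more of the three replicates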

| gene | pool no. | mean z-score | z-score, replicate A | z-score, replicate B | z-score, replicate C | Outcome |
| --- | --- | --- | --- | --- | --- | --- |
| BGN | 1 | 0.38 | 0.37 | 0.51 | 0.26 | inactive |
| NAP1L3 | 1 | -0.06 | -0.26 | 0.02 | 0.05 | inactive |
| TUBB8 | 1 | 0.54 | 0.71 | 0.56 | 0.36 | inactive |
| MC2R | 1 | -1.52 | -1.87 | -1.84 | -0.86 | inactive |
| PCDHGB7 | 1 | -0.54 | -0.88 | -0.35 | -0.37 | inactive |
| HILPDA | 1 | 0.55 | 0.79 | 0.39 | 0.48 | inactive |
| FOXC1 | 1 | 1.25 | 1.43 | 0.93 | 1.37 | inactive |
| RARG | 1 | 0.56 | 0.61 | 0.48 | 0.58 | inactive |
| PIR | 1 | 1.38 | 1.49 | 1.38 | 1.27 | inactive |
| LOC388171 (retired record) | 1 | 3.53 | 3.86 | 3.48 | 3.26 | active |
| CADM2 | 1 | 0.4 | 0.29 | 0.61 | 0.31 | inactive |
| STBD1 | 1 | -1.32 | -1.16 | -1.39 | -1.41 | inactive |
| LRRC41 | 1 | -0.18 | -0.08 | -0.32 | -0.15 | inactive |
| U2AF1 | 1 | -0.82 | -0.69 | -0.88 | -0.89 | inactive |
| SLC38A2 | 1 | -0.29 | -0.3 | -0.06 | -0.52 | inactive |
| IFNGR1 | 1 | 1.56 | 1.33 | 1.79 | 1.57 | inactive |
| NDUFAF7 | 1 | 0.1 | 0.52 | -0.12 | -0.09 | inactive |
| TRAPPC6B | 1 | -0.61 | -0.46 | -0.67 | -0.7 | inactive |
| THRAP3 | 1 | -0.24 | -0.15 | -0.34 | -0.23 | inactive |
| RAD54B | 1 | 0.03 | 0.11 | -0.03 | 0 | inactive |
| RAD54B | 2 | 0.05 | 0.1 | -0.15 | 0.19 | inactive |
| SEMA4C | 1 | 1.4 | 1.42 | 1.41 | 1.38 | inactive |
| PPP2R1A | 1 | 1.51 | 1.45 | 1.5 | 1.57 | inactive |
| PSMD1 | 1 | -1.95 | -1.87 | -2.05 | -1.93 | inactive |
| KIFAP3 | 1 | -0.16 | 0.15 | -0.42 | -0.2 | inactive |
| NCOA4 | 1 | 1.09 | 0.85 | 1.1 | 1.31 | inactive |
| AUTS2 | 1 | 2.04 | 2.34 | 2.08 | 1.7 | active |
| RTL10 | 1 | -3.97 | -4.04 | -3.86 | -4.01 | inactive |
| CNTFR | 1 | 0.37 | 0.52 | 0.53 | 0.07 | inactive |
| EPHX4 | 1 | 1.12 | 0.99 | 1.25 | 1.13 | inactive |
| ILKAP | 1 | 0.51 | 0.38 | 0.21 | 0.93 | inactive |
| SLC28A1 | 1 | 0.41 | 0.32 | 0.56 | 0.36 | inactive |
| LOC390865 (retired record) | 1 | 0.13 | 0.35 | 0.16 | -0.12 | inactive |
| TCEAL1 | 1 | 0.98 | 0.75 | 1.53 | 0.65 | inactive |
| ZGRF1 | 1 | 0.12 | -0.19 | 0.05 | 0.51 | inactive |
| ZGRF1 | 2 | -0.36 | -0.45 | -0.46 | -0.16 | inactive |
| FKBP4 | 1 | 1.17 | 1.78 | 0.93 | 0.8 | inactive |
| PCBD1 | 1 | 0.19 | 0.67 | 0.03 | -0.14 | inactive |
| CCDC144BP | 1 | -1.38 | -1.54 | -1.44 | -1.17 | inactive |
| SAFB | 1 | -0.02 | -0.45 | 0.25 | 0.14 | inactive |
| TCTN2 | 1 | 0.84 | 1.13 | 1.08 | 0.29 | inactive |
| BPIFB1 | 1 | -3.12 | -3.12 | -3.4 | -2.82 | inactive |
| ANPEP | 1 | 0.28 | -0.01 | 0.38 | 0.48 | inactive |
| CCND3 | 1 | -0.02 | -0.37 | 0.09 | 0.23 | inactive |
| RSBN1L | 1 | 0.63 | 0.73 | 0.64 | 0.52 | inactive |
| LOC100506459 | 1 | 0.51 | 0.58 | 0.51 | 0.44 | inactive |
| ITPA | 1 | 0.46 | 1.17 | 0.49 | -0.29 | inactive |
| DAZAP1 | 1 | 1.28 | 1.39 | 1.28 | 1.16 | inactive |
| NTN1 | 1 | 0.28 | 0.39 | 0.09 | 0.36 | inactive |
| SLC35D2 | 1 | 0.5 | 0.29 | 0.38 | 0.82 | inactive |
| ASB8 | 1 | 1.15 | 1.39 | 1.09 | 0.98 | inactive |
| BLTP3A | 1 | 0.4 | 0.67 | 0.43 | 0.1 | inactive |
| FAM209B | 1 | -1.35 | -1.4 | -1.13 | -1.53 | inactive |
| NPFFR1 | 1 | -1.44 | -1.51 | -1.31 | -1.5 | inactive |
| RPRD1A | 1 | -0.39 | -0.51 | -0.27 | -0.38 | inactive |
| ALG1L1P | 1 | -0.39 | -0.62 | -0.36 | -0.2 | inactive |
| NOP56 | 1 | -0.6 | -0.51 | -0.66 | -0.63 | inactive |
| PLEKHA8 | 1 | 0.44 | 0.72 | 0.09 | 0.52 | inactive |
| ZP3 | 1 | -1.54 | -1.58 | -1.63 | -1.42 | inactive |
| CLPS | 1 | -1.51 | -1.71 | -1.28 | -1.56 | inactive |
| OR51M1 | 1 | -0.85 | -0.75 | -0.66 | -1.16 | inactive |
| LOC729915 (retired record) | 1 | 1.34 | 1.46 | 1.37 | 1.19 | inactive |
| MACC1 | 1 | 0.5 | 0.79 | 0.14 | 0.56 | inactive |
| CELSR2 | 1 | -0.59 | -0.69 | -0.54 | -0.53 | inactive |
| DGKG | 1 | 0.31 | 0.81 | 0.21 | -0.09 | inactive |
| FAM120A | 1 | -0.22 | -0.2 | -0.27 | -0.21 | inactive |
| EXTL3 | 1 | -1.18 | -1.24 | -1.26 | -1.03 | inactive |
| C1D | 1 | 1.49 | 1.5 | 1.44 | 1.53 | inactive |
| GOLGA6L2 | 1 | -0.16 | -0.39 | -0.13 | 0.03 | inactive |
| ZNF619 | 1 | -0.36 | -0.72 | -0.13 | -0.25 | inactive |
| HAVCR1 | 1 | 0.75 | 0.91 | 0.64 | 0.7 | inactive |
| TLR4 | 1 | -0.67 | -0.61 | -0.63 | -0.77 | inactive |
| CHORDC1 | 1 | -0.61 | -0.67 | -0.59 | -0.58 | inactive |

No new results follow: entries from further up.
| gene | pool no. | mean z-score | z-score, replicate A | z-score, replicate B | z-score, replicate C | Outcome |
| --- | --- | --- | --- | --- | --- | --- |
| ZGRF1 | 1 | 0.12 | -0.19 | 0.05 | 0.51 | inactive |
| ZGRF1 | 2 | -0.36 | -0.45 | -0.46 | -0.16 | inactive |
| FKBP4 | 1 | 1.17 | 1.78 | 0.93 | 0.8 | inactive |
| PCBD1 | 1 | 0.19 | 0.67 | 0.03 | -0.14 | inactive |
| CCDC144BP | 1 | -1.38 | -1.54 | -1.44 | -1.17 | inactive |
| SAFB | 1 | -0.02 | -0.45 | 0.25 | 0.14 | inactive |
| TCTN2 | 1 | 0.84 | 1.13 | 1.08 | 0.29 | inactive |
| BPIFB1 | 1 | -3.12 | -3.12 | -3.4 | -2.82 | inactive |
| ANPEP | 1 | 0.28 | -0.01 | 0.38 | 0.48 | inactive |
